Results of unrelated studies side by side (data: NIAID ChemDB).

Shared fields: enzyme or target tests; agent: Hepatitis C virus; target: Nonstructural protein 5B; measure: IC50

Two numbers with a dash give a range or band.

| compound | strain | read by | result |
|---|---|---|---|
| CNC(=O)c1c(-c2ccc(C)c(F)c2)oc2ccc(OC)cc12 |  |  | ≤0.5 µM |
| O=C(O)c1ccc(N2C(=O)C(=Cc3ccc(-c4cccc(Cl)c4Cl)o3)SC2=S)cc1 |  |  | ≤1 µM |
| CNC(=O)c1c(-c2ccc(F)cc2)oc2cc(-c3ccc(F)nc3)c(OC(C)C)cc12 |  |  | ≤0.5 µM |
| CCCc1ccc(-c2ccc(C=C3SC(=S)N(c4ccc(C(=O)O)cc4)C3=O)o2)cc1 |  |  | ≤1 µM |
| CC(C)(C)OC(=O)NCC(C)(C)c1cccc(CCC2(C3CCCC3)CC(=O)CC(=O)O2)c1 |  |  | 10–50 µM |
| Cc1c(-c2ccc(C=C3SC(=S)N(c4ccc(C(=O)O)cc4)C3=O)o2)sc2ccc(Cl)cc12 |  |  | ≤1 µM |
| COc1c(-c2ccc3cc(NS(C)(=O)=O)ccc3c2)cc(-n2ccc(=O)[nH]c2=O)cc1C(C)(C)C | GT 3a#3 | nucleotide incorporation | 3.7 µM |
| Cc1cc(SC2=C(O)CC(CCc3ccco3)(C(C)C)OC2=O)c(C(C)(C)C)cc1CO |  |  | 1–10 µM |
| CNC(=O)c1c(-c2ccc(F)cc2)oc2cc(-c3cc(CO)on3)c(OC)cc12 |  |  | ≤0.5 µM |
| CCCN(C1=C(O)CC(CCc2ccc(O)cc2)(C2CCCC2)OC1=O)c1ccccc1 |  |  | 1–10 µM |
| O=C(O)c1ccc(N2C(=O)C(=Cc3ccc(-c4ccc5c(c4)OCO5)o3)SC2=S)cc1 |  |  | ≤1 µM |
| CNC(=O)c1c(-c2ccc(F)cc2)oc2cc(-c3c(C)noc3C)c(OC(C)C)cc12 |  |  | ≤0.5 µM |
| COc1cc(OC)c(CCC2(C3CCCC3)CC(O)=C(Sc3nc4[nH]ccc4c(=O)[nH]3)C(=O)O2)cc1Cl |  |  | <1 µM |
| CNC(=O)c1c(-c2ccc(F)cc2)oc2cc(N(C)S(C)(=O)=O)c(OCc3csc(C)n3)cc12 |  |  | ≤0.5 µM |
| C=CCOCc1ccccc1CCC1(C2CCCC2)CC(=O)CC(=O)O1 |  |  | 10–50 µM |
| Cc1cc(C)cc(-c2ccc(C=C3SC(=S)N(CCC(=O)O)C3=O)o2)c1 |  |  | ≤1 µM |

Repeating the final 2 entries:

compound,strain,read by,result
C=CCOCc1ccccc1CCC1(C2CCCC2)CC(=O)CC(=O)O1,,,10–50 µM
Cc1cc(C)cc(-c2ccc(C=C3SC(=S)N(CCC(=O)O)C3=O)o2)c1,,,≤1 µM

Blank or dashed fields: not listed here. ICn is the concentration giving n% inhibition. Conditions beyond the fields shown may differ between rows.